Compound potency records, mixed from different reports. Data source: NIAID ChemDB in PubChem.

Shared fields: whole-cell or culture tests; organism: HIV-2; read by: syncytia; endpoint: EC50

Rows are shuffled and stem from different studies. ECn is the concentration giving n% inhibition of infection, replication or growth. An empty or dashed field is not shown.

CCC(C)C(NP(=O)(OC[C@@H]1C=C[C@H](n2cc(C)c(=O)[nH]c2=O)O1)Oc1ccccc1)C(=O)OC ; strain or isolate: ROD ; cells: CEM + CEM/O ; value: 12.5 µM
CCCC(C)(C)[Si](C)(C)OC[C@H]1O[C@@H](n2cc(C)c(=O)n(CC(=O)O)c2=O)[C@H](O[Si](C)(C)C(C)(C)CCC)[C@@H]1O ; strain or isolate: ROD ; cells: CEM ; value: >10 µM
Cc1cn([C@@H]2O[C@H](CO[Si](C)(C)C(C)(C)C)C3(OS(=O)(=O)C=C3N)[C@H]2O[Si](C)(C)C(C)(C)C)c(=O)n(C)c1=O ; strain or isolate: ROD ; cells: CEM ; value: >20 µM
CCCCCCCCCCCCCCCCOCCOP(=O)(O)OC[C@H]1O[C@@H](n2cc(C)c(=O)[nH]c2=O)C[C@@H]1N=[N+]=[N-] ; strain or isolate: ROD ; cells: CEM + CEM/O ; value: 0.052 µM
Cc1cccc2c1OP(=O)(OC[C@@H]1C=C[C@H](n3cnc4c(NC5CC5)nc(N)nc43)C1)OC2 ; strain or isolate: ROD ; cells: CEM ; value: 0.75 µM
COC(=O)CCc1cccc2c1OP(=O)(OC[C@@H]1C=C[C@H](n3cc(C)c(=O)[nH]c3=O)O1)OC2 ; strain or isolate: LAV-2 ; cells: CEM + CEM TK- ; value: 0.4 µM
Cc1cn([C@@H]2O[C@H](COCc3ccccc3)C3(OS(=O)(=O)C(Cc4ccccc4)=C3NCc3ccccc3)[C@H]2O[Si](C)(C)C(C)(C)C)c(=O)n(C)c1=O ; strain or isolate: ROD ; cells: MT-4 ; value: >130 µM
Cc1cn([C@@H]2O[C@H](CC3CCCCC3)C3(OS(=O)(=O)C=C3N)[C@H]2O[Si](C)(C)C(C)(C)C)c(=O)[nH]c1=O ; strain or isolate: ROD ; cells: CEM ; value: >4 µg/mL
Cc1ccc2c(c1)COP(=O)(OCCOCn1cnc3c(=O)[nH]c(N)nc31)O2 ; strain or isolate: ROD ; cells: CEM ; value: 30 µM
CC(=O)OCOC(=O)CCc1ccc2c(c1)COP(=O)(OC[C@@H]1C=C[C@H](n3cc(C)c(=O)[nH]c3=O)O1)O2 ; strain or isolate: LAV-2 ; cells: CEM + CEM TK- ; value: 25 µM
Cc1cccc2c1OP(=O)(OCCOCn1cnc3c(=O)[nH]c(N)nc31)OC2 ; strain or isolate: ROD ; cells: CEM ; value: ≥50 µM
Cc1cn([C@H]2C[C@H](N=[N+]=[N-])[C@@H](CN3C(=O)c4cccc([N+](=O)[O-])c4C3=O)O2)c(=O)[nH]c1=O ; strain or isolate: ROD ; cells: CEM ; value: 4.7 µM
Cc1cn([C@H]2C=C[C@@H](CO)O2)c(=O)[nH]c1=O ; setting: 4 d ; strain or isolate: ROD ; cells: CEM ; value: 0.78 µM
CC(=O)O[C@@H]1[C@H](n2cc(C)c(=O)[nH]c2=O)O[C@@H](COC(=O)c2ccccc2)C12OS(=O)(=O)C=C2N ; strain or isolate: ROD ; cells: CEM ; value: >100 µg/mL
Cc1cn([C@H]2C[C@H](N=[N+]=[N-])[C@@H](CN3C(=O)c4c(Br)c(Br)c(Br)c(Br)c4C3=O)O2)c(=O)[nH]c1=O ; strain or isolate: ROD ; cells: CEM ; value: 3.9 µM
O=C(NC1CC1)c1ccc(B(O)O)cc1 ; strain or isolate: ROD ; cells: CEM ; value: >250 µM
CC[C@@]1(O)C(=O)OCc2c1cc1n(c2=O)Cc2cc3cc(O)ccc3nc2-1 ; strain or isolate: CBL-20 ; cells: C8166 ; value: 0.0132 µg/mL
Cc1cn([C@H]2C=C[C@@H](COP3(=O)OCc4cc(-c5ccccc5)ccc4O3)O2)c(=O)[nH]c1=O ; strain or isolate: ROD ; cells: CEM + CEM/O ; value: 0.47 µM
Cc1cn([C@@H]2O[C@H](COC(=O)C(C)(C)C)C3(OS(=O)(=O)C=C3N)[C@H]2O[Si](C)(C)C(C)(C)C)c(=O)[nH]c1=O ; strain or isolate: ROD ; cells: CEM ; value: >35 µM
Nc1ncnc2c1ncn2CCOCP(=O)(O)O ; strain or isolate: ROD ; cells: CEM ; value: 6.6 µM
CC(=O)OC[C@H]1O[C@@H](n2cc(C)c(=O)[nH]c2=O)C[C@@H]1N(C)OC(C)=O ; strain or isolate: ROD ; cells: CEM ; value: >250 µg/mL
Cc1cn([C@H]2C=C[C@@H](CO[P@@]3(=O)OCc4cccc(-c5cccc6c5OC(C)(C)OC6)c4O3)O2)c(=O)[nH]c1=O ; strain or isolate: LAV-2 ; cells: CEM ; value: 0.4 µM
Cc1cn([C@H]2C[C@H](N=[N+]=[N-])[C@@H](CN3C(=O)c4cc(Cl)c(Cl)cc4C3=O)O2)c(=O)[nH]c1=O ; strain or isolate: ROD ; cells: CEM + CEM TK- ; value: >200 µM
COC(=O)CCNP(=O)(OC[C@@H]1C=C[C@H](n2cc(C)c(=O)[nH]c2=O)O1)Oc1ccccc1 ; strain or isolate: ROD ; cells: CEM + CEM/O ; value: 6 µM
Cc1cn([C@@H]2O[C@H](CO[Si](C)(C)C(C)(C)C)[C@@H](O[Si](C)(C)C(C)(C)C)[C@H]2O)c(=O)n(CCO)c1=O ; strain or isolate: ROD ; cells: CEM ; value: >50 µM
Cc1cn([C@H]2C[C@H](N=[N+]=[N-])[C@@H](CN3C(=O)c4ccc([N+](=O)[O-])cc4C3=O)O2)c(=O)[nH]c1=O ; strain or isolate: ROD ; cells: CEM + CEM TK- ; value: >200 µM
Cc1cn([C@@H]2O[C@H](CO[Si](C)(C)C(C)(C)C)C3(OS(=O)(=O)C=C3N)[C@H]2O)c(=O)[nH]c1=O ; strain or isolate: ROD ; cells: MT-4 ; value: >40 µM
Cc1cn([C@H]2C=C[C@@H](CO)O2)c(=O)[nH]c1=O ; strain or isolate: ROD ; cells: CEM + CEM TK- ; value: 33 µM
Cc1cn([C@H]2C[C@H](N=[N+]=[N-])[C@@H](CO)O2)c(=O)[nH]c1=O ; strain or isolate: ROD ; cells: CEM + CEM TK- ; value: ≥100 µM
CC(C)(C)[Si](C)(C)OC[C@H]1O[C@@H](n2ccc(=O)n(CC(=O)O)c2=O)[C@H](O)[C@@H]1O[Si](C)(C)C(C)(C)C ; strain or isolate: ROD ; cells: CEM ; value: >10 µM
Cc1cn([C@@H]2O[C@H](COCc3ccccc3)C3(OS(=O)(=O)C=C3N)[C@H]2O[Si](C)(C)C(C)(C)C)c(=O)[nH]c1=O ; strain or isolate: ROD ; cells: CEM ; value: >6 µM
CC(C)(C)[Si](C)(C)OC[C@@H]1CC[C@H](n2cnc3c(=O)n(CC(=O)OCc4ccccc4)cnc32)O1 ; strain or isolate: ROD ; cells: CEM ; value: >50 µM
CCCCCCCCCCCCCCOP(=O)(O)OC[C@H]1O[C@@H](n2cc(C)c(=O)[nH]c2=O)C[C@@H]1N=[N+]=[N-] ; strain or isolate: ROD ; cells: CEM + CEM TK- ; value: >40 µM
Nc1ccn([C@H]2CC[C@@H](CO)O2)c(=O)n1 ; strain or isolate: ROD ; cells: CEM ; value: 0.01 µM
Cc1cn([C@@H]2O[C@H](CO[Si](C)(C)C(C)(C)C)C3(OS(=O)(=O)C=C3N)[C@H]2O[Si](C)(C)C(C)(C)C)c(=O)n(CC(=O)N[C@@H](C)C(=O)O)c1=O ; strain or isolate: ROD ; cells: CEM ; value: 25 µM
Cc1c(N)nc(N)nc1OCCOCP(=O)(O)O ; strain or isolate: ROD ; cells: CEM ; value: 0.23 µM
OB(O)c1ccc(/C=N\NC(=S)Nc2ccccc2)cc1 ; strain or isolate: ROD ; cells: CEM ; value: ≥50 µM
COC(=O)[C@H](C)NP(=O)(OC[C@@H]1O[C@H](n2ccc(N)nc2=O)CS1)Oc1ccccc1 ; strain or isolate: ROD ; cells: CEM ; value: 3 µM
Cc1cn([C@H]2C[C@H](N=[N+]=[N-])[C@@H](CO[Si](C)(C)C(C)(C)C)O2)c(=O)n(CC(=O)O)c1=O ; strain or isolate: ROD ; cells: CEM ; value: >50 µM
O=C(CC[C@H]1C(=O)OCN1C(=O)OCc1ccccc1)Nc1ccc(B(O)O)cc1 ; strain or isolate: ROD ; cells: CEM ; value: >50 µM
Cc1cn([C@H]2C=C[C@@H](COP3(=O)OCc4cc5ccccc5cc4O3)O2)c(=O)[nH]c1=O ; strain or isolate: ROD ; cells: CEM + CEM/O ; value: 0.5 µM
OB(O)c1ccccc1 ; strain or isolate: ROD ; cells: CEM ; value: >250 µM
C1CNCCNCCCNCCNC1 ; strain or isolate: GH-1 ; cells: MOLT-4 ; value: 8.44 µM
Cc1cn([C@H]2C[C@@H]3[C@@H](COCN3O)O2)c(=O)[nH]c1=O ; strain or isolate: ROD ; cells: CEM ; value: 25 µg/mL
Cc1cn([C@@H]2O[C@H](CO[Si](C)(C)C(C)(C)C(C)C)C3(OS(=O)(=O)C=C3N)[C@H]2O[Si](C)(C)C(C)(C)C)c(=O)n(C)c1=O ; strain or isolate: ROD ; cells: MT-4 ; value: >6 µM
CCCCCCCCCCCCOCCOP(=O)(O)OC[C@H]1O[C@@H](n2cc(C)c(=O)[nH]c2=O)C[C@@H]1N=[N+]=[N-] ; strain or isolate: ROD ; cells: CEM + CEM TK- ; value: >40 µM
OB(O)c1ccccc1/C=N/NC(=S)Nc1ccccc1 ; strain or isolate: ROD ; cells: CEM ; value: >50 µM
Cc1cn([C@@H]2O[C@H](CO[Si](C)(C)C(C)(C)C)C3(OS(=O)(=O)C=C3N)[C@H]2O[Si](C)(C)C(C)(C)C)c(=O)n(CC(=O)N[C@H](C(=O)OCc2ccccc2)C(C)C)c1=O ; strain or isolate: ROD ; cells: CEM ; value: >50 µM
Cc1cn([C@H]2C=C[C@@H](COP3(=O)OCc4cccc(CCC(=O)OC(C)(C)C)c4O3)O2)c(=O)[nH]c1=O ; strain or isolate: LAV-2 ; cells: CEM + CEM/O ; value: 0.5 µM
COC(=O)[C@H](C)NP(=O)(OC[C@@H]1C=C[C@H](n2cc(C)c(=O)[nH]c2=O)O1)Oc1ccccc1 ; strain or isolate: ROD ; cells: CEM + CEM TK- ; value: 0.08 µM
Cc1cn([C@H]2C=C[C@@H](CO)O2)c(=O)[nH]c1=O ; strain or isolate: ROD ; cells: CEM + CEM TK- ; value: 8.7 µM
Cc1cn([C@@H]2O[C@H](CO[Si](C)(C)C(C)(C)C)C3(OS(=O)(=O)C=C3N)[C@H]2O[Si](C)(C)C(C)(C)C)c(=O)n(CC(=O)N[C@@H](CC(=O)O)C(=O)O)c1=O ; strain or isolate: ROD ; cells: CEM ; value: 140 µM
Nc1nc2c(ncn2COCCOP2(=O)OCc3ccccc3O2)c(=O)[nH]1 ; strain or isolate: ROD ; cells: CEM ; value: >50 µM
Cc1cn([C@@H]2O[C@H](CO[Si](C)(C)C(C)(C)C)C3(OS(=O)(=O)C=C3N)[C@H]2O[Si](C)(C)C(C)(C)C(C)C)c(=O)n(C)c1=O ; strain or isolate: ROD ; cells: MT-4 ; value: >30 µM
CC(C)(C)OC(=O)Nc1cccc(B(O)O)c1 ; strain or isolate: ROD ; cells: CEM ; value: ≥250 µM
Cc1cn([C@H]2C=C[C@@H](CO[P@]3(=O)OCc4cccc(-c5cccc6c5OC(C)(C)OC6)c4O3)O2)c(=O)[nH]c1=O ; strain or isolate: LAV-2 ; cells: CEM ; value: 0.4 µM
Cc1cn([C@@H]2O[C@H](CC3CCCCC3)C3(OS(=O)(=O)C=C3N)[C@H]2OC(=O)c2ccccc2)c(=O)[nH]c1=O ; strain or isolate: ROD ; cells: CEM ; value: >4 µg/mL
OB(O)c1ccccc1OCc1ccc(I)cc1 ; strain or isolate: ROD ; cells: CEM ; value: >50 µM
COC(=O)CCn1c(=O)c(C)cn([C@@H]2O[C@H](CO[Si](C)(C)C(C)(C)C)[C@@H](O)[C@H]2O[Si](C)(C)C(C)(C)C)c1=O ; strain or isolate: ROD ; cells: CEM ; value: >10 µM
Cc1cn([C@@H]2O[C@@H](CO[Si](C)(C)C(C)(C)C)C3(OS(=O)(=O)C=C3N)[C@@H]2O[Si](C)(C)C(C)(C)C)c(=O)[nH]c1=O ; strain or isolate: ROD ; cells: CEM ; value: >20 µg/mL

Repeating the final 5 entries:

| SMILES | setting | strain or isolate | cells | value |
|---|---|---|---|---|
| Cc1cn([C@H]2C=C[C@@H](CO[P@]3(=O)OCc4cccc(-c5cccc6c5OC(C)(C)OC6)c4O3)O2)c(=O)[nH]c1=O |  | LAV-2 | CEM | 0.4 µM |
| Cc1cn([C@@H]2O[C@H](CC3CCCCC3)C3(OS(=O)(=O)C=C3N)[C@H]2OC(=O)c2ccccc2)c(=O)[nH]c1=O |  | ROD | CEM | >4 µg/mL |
| OB(O)c1ccccc1OCc1ccc(I)cc1 |  | ROD | CEM | >50 µM |
| COC(=O)CCn1c(=O)c(C)cn([C@@H]2O[C@H](CO[Si](C)(C)C(C)(C)C)[C@@H](O)[C@H]2O[Si](C)(C)C(C)(C)C)c1=O |  | ROD | CEM | >10 µM |
| Cc1cn([C@@H]2O[C@@H](CO[Si](C)(C)C(C)(C)C)C3(OS(=O)(=O)C=C3N)[C@@H]2O[Si](C)(C)C(C)(C)C)c(=O)[nH]c1=O |  | ROD | CEM | >20 µg/mL |